Experiment [1] addresses T1, gp120LAI (Human immunodeficiency virus type 1 group M subtype B, UniProt P03377).
T1 construct: protein gp120LAI and gp120HXB2
Put plainly: Competition indirect ELISA, inhibition of rgp120LAI-soluble CD4 interaction. The protocol: (§1) The inhibition of the rgp120-CD4 interaction was measured by indirect ELISA (Enzyme Linked ImmunoSorbent Assay). 50 ng per well of anti-gp120 antibody, D7324, were immobilized on a 96-well plate (Maxisorb, Nunc) overnight at 4° C. After passivation with bovine serum albumin and three washes with the washing buffer (10 mM Tris, pH 7.8, 0.05% Tween 20), 15 ng of rgp120HXB2 per well were added. Various concentrations of competitors were then added, after three washes, and also 0.4 ng of soluble CD4 per well. 100% controls containing only soluble CD4 were prepared. After overnight incubation at 4° C. and three washes, 5 ng of mouse anti-CD4 antibody L120.3 were added per well, followed by a peroxidase-coupled goat anti-mouse IgG antibody (GAMPO). The revelation was carried out by adding 3,3′,5,5′-tetramethylbenzidine, a fluorescent substrate for peroxydase. […] The inhibition of the rgp120-CD4 interaction was calculated by reading the absorbance A at 450 nm. Controls without competitor made it possible to determine the absorbance A100% (absorbance in the absence of competitor). The percentage inhibition for each concentration of peptide of the present invention was calculated using the formula: percentage inhibition=100×(A100%−A)/A100%.
The assays were carried out in duplicate and the results were expressed as the mean of experimental duplicates.

Experiment [2] concerns the target T2, gp120HXB2 (Human immunodeficiency virus type 1 group M subtype B, UniProt P04578).
T2 construct: the wild-type gp120 viral protein is concentrated and directly purified from the culture supernatant; signal peptide of the ecdysteroid glycosyltransferase of Autographa californica baculovirus (N); made in house; host or cells: Sf9 insect cells, recombinant baculovirus
Put plainly: Competition indirect ELISA, inhibition of gp120HXB2-soluble CD4 interaction. The protocol: as §1
The assays were carried out in duplicate and the results were expressed as the mean of experimental duplicates. […]

For experiment [3], the system named is recombinant viral protein gp120. Put plainly: ELISA inhibition of CD4-gp120 interaction, gp120 strain not singled out. The procedure:
The inhibition of the rgp120-CD4 interaction was measured by indirect ELISA (Enzyme Linked ImmunoSorbent Assay). 50 ng per well of anti-gp120 antibody, D7324, were immobilized on a 96-well plate (Maxisorb, Nunc) overnight at 4° C. After passivation with bovine serum albumin and three washes with the washing buffer (10 mM Tris, pH 7.8, 0.05% Tween 20), 15 ng of rgp120HXB2 per well were added. Various concentrations of competitors were then added, after three washes, and also 0.4 ng of soluble CD4 per well. 100% controls containing only soluble CD4 were prepared. After overnight incubation at 4° C. and three washes, 5 ng of mouse anti-CD4 antibody L120.3 were added per well, followed by a peroxidase-coupled goat anti-mouse IgG antibody (GAMPO). The revelation was carried out by adding 3,3′,5,5′-tetramethylbenzidine, a fluorescent substrate for peroxydase. The reaction was stopped after 30 minutes by adding 2M sulphuric acid. The inhibition of the rgp120-CD4 interaction was calculated by reading the absorbance A at 450 nm. Controls without competitor made it possible to determine the absorbance A100% (absorbance in the absence of competitor). The percentage inhibition for each concentration of peptide of the present invention was calculated using the formula: percentage inhibition=100×(A100%−A)/A100%.

Experiment [4] concerns the target gp120JRFL. Put plainly: Surface plasmon resonance, immobilized biotinylated peptide, gp120JRFL injected. Conditions: biotinylated peptide on streptavidin chip, 25° C., read-out: dissociation constant KD. The protocol: (§2) The surface plasmon resonance experiments were carried out with a Biacore 2000 system (Biacore, Uppsala, Sweden). The peptides to be tested were coupled to biotin (as described previously) and then immobilized on a chip to which streptavidin had been previously attached.
(§3) The streptavidin was immobilized on the chip as follows: the surface of the chip was first activated by injection of 50 μL of coupling agent provided by the constructor and able to form amide bonds: N-ethyl-N′-(dimethylaminopropyl)carbodiimide (EDC)/N-hydroxy-succinimide (NHS), 50/50; then, 20 μL of streptavidin, 0.2 mg.mL^−1 in 10 mM sodium acetate, pH 4.5, were injected at 5 μL.min^−1, followed by neutralization of the activated carboxylic groups with 2×20 μL of 1.0 M ethanolamine, pH 8.5. […] The dissociation constants are calculated from the kinetic constants determined by the Bia-evaluation 3.0 software.
In order to obtain a first evaluation of the affinity of the peptide of the present invention CD4M33 for the viral protein gp120, an analysis of biospecific interactions (described in Example 3), based on detection by surface plasmon resonance, was used. […] Solutions, of various recombinant gp120 proteins (gp120HXB2, gp120BAL and gp120JRFL) were then injected onto this matrix and a signal indicating a specific and high affinity association was then detected.

Experiment [5] concerns the target recombinant viral protein gp120. Put plainly: Surface plasmon resonance, summary over recombinant gp120 proteins. Conditions: read-out: Kd, surface plasmon resonance experiments. The procedure:
as §2
as §3, with “8.5. The biotinylated molecules were then injected (10 μL.min^−1 in a 10 mM Hepes buffer containing 0.3 M NaCl, pH 7.4) onto three of the four lanes of the chip. On the first lane, CD4M9 (10^−7 M) was immobilized up to an RU (resonance unit) value of 100; the second lane was left unused (control); the third lane was covered with soluble CD4 (10^−7 M) up to a value of 450 RU; on the fourth lane, CD4M33 (10^−7 M) was immobilized at a value of 100 RU.” for “8.5.”
(In general: Surface plasmon resonance follows binding to a sensor surface in real time, without labels.)

Experiment [6] has as its target T2, gp120HXB2. Nature of the experiment: Surface plasmon resonance, gp120HXB2 binding to immobilized antibodies 48d and CG10 in presence of peptide. Particulars: 1.5-fold and 20-fold molar excess of peptide. From the text: In order to evaluate the ability of the peptide of the present invention CD4M33 to induce conformational variations in the gp120 protein, characterized by the exposure of epitopes sensitive to neutralizing antibodies, the interaction of such human antibodies, 48d and CG10, with the HIV envelope in the presence of CD4M33 and, by comparison, of recombinant CD4, was undertaken using the surface plasmon resonance technique. The antibodies 48d and CG10 were covalently attached to the surface of the chips (biochip), and the solutions of gp120, in the absence of CD4 and in the presence of an excess of CD4 and of CD4M33, were injected.

Structures are written as SMILES.

In general, IC50 refers to the midpoint of a concentration-inhibition curve. As to `CC(C)C[C@@H]1NC(=O)CNC(=O)[C@H](CC(C)C)NC(=O)[C@H](CO)NC(=O)[C@H](CCCCN)NC(=O)[C@@H]2CSSC[C@@H](C(=O)N[C@H](C(N)=O)C(C)C)NC(=O)[C@H](C)NC(=O)[C@@H]3CSSC[C@H](NC(=O)[C@H](Cc4ccccc4)NC(=O)[C@H](C)NC(=O)[C@H](CC(C)C)NC(=O)[C@H](CC(N)=O)NC(=O)CCSSC[C@H](NC(=O)[C@H](CCCCN)NC(=O)CNC(=O)[C@H](CC(C)C)NC1=O)C(=O)N[C@@H](C)C(=O)NCC(=O)N[C@@H](CO)C(=O)N[C@@H](Cc1ccccc1)C(=O)N3)C(=O)N[C@@H](CCC(N)=O)C(=O)N[C@@H](CC(C)C)C(=O)N[C@@H](CCCNC(=N)N)C(=O)N2` [CD4M27], the half-inhibitory concentration (IC50) was 10 nM in experiment [1]; 7 nM in experiment [2] (IC50 (gp120HXB2), soluble recombinant CD4, standard deviation less than 30%); 7 nM in experiment [2] (IC50, inhibition of gp120HXB2-soluble CD4 interaction).

As usually defined, the Kd is the equilibrium constant for the complex coming apart. As for `CC(C)C[C@@H]1NC(=O)CNC(=O)[C@H](CC(C)C)NC(=O)[C@H](CO)NC(=O)[C@H](CCCCN)NC(=O)[C@@H]2CSSC[C@@H](C(=O)N[C@H](C(N)=O)C(C)C)NC(=O)[C@H](C)NC(=O)[C@@H]3CSSC[C@H](NC(=O)[C@H](Cc4ccccc4)NC(=O)[C@H](Cc4c[nH]cn4)NC(=O)[C@H](CC(C)C)NC(=O)[C@H](CC(N)=O)NC(=O)CCSSC[C@H](NC(=O)[C@H](CCCCN)NC(=O)CNC(=O)[C@H](CC(C)C)NC1=O)C(=O)N[C@@H](C)C(=O)NCC(=O)N[C@@H](CO)C(=O)N[C@@H](C(c1ccccc1)c1ccccc1)C(=O)N3)C(=O)N[C@@H](CCC(N)=O)C(=O)N[C@@H](CC(C)C)C(=O)N[C@@H](CCCNC(=N)N)C(=O)N2` [CD4M33], in experiment [3] (gp120HXB2 and gp120LAI), the “increase in the ability to inhibit the CD4-gp120 binding compared to CD4M9” value was determined as 1000 fold. Moreover, the IC50 in experiment [3] (summary over gp120HXB2 and gp120LAI) fell in the range of 0.12 to 0.25 nM. The Kd in experiment [4] is 8.5 nM; in experiment [5], 2.4 to 8 nM. Besides, the “interaction of gp120HXB2 with antibodies 48d and CG10 (in words)” value in experiment [6] was “strong interaction with the antibodies”.

The values above are taken from US7374875B2, “Peptides having affinity for the gp120 viral protein and use thereof” (priority 2001, dated 2008).
